Record: PubChem BioAssay AID504761 (Drosophila RNAi Screening Center, 2011)

Screen: 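Genome-wide fly cell screen for genes dengue virus requires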 (primary screen)
System: D.Mel-2 cells from Drosophila
Knock-down reagent: long dsRNA against Drosophila genes
Challenge: infection with dengue virus type 2; dose and infection time not stated
Read-out: 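Per well on two replicate plates, imaging gave the percent of cells positive for viral envelope protein, ranked by infection, and a nuclear count of cells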
Scale: infection score: higher = more virus-infected cells; cell count: higher = more cells in the well
Call rule: 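Very low infection ranking in both replicate wells (chance probability at most 0.065), then a retest showing infection dropped 1.5-fold or more at p below 0.05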
Meaning of the calls: active = confirmed: knock-down lowers infection; inactive = not picked or not confirmed
In all, the deposit lists about 22,000 reagents; this is a random part of those that have a named target and a result. Of all reagents, 116 (0.52%) are marked active. 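Calls depend on retest data that are not deposited; infection was ranked per plate without normalising between plates; the unit of the infection score is not given.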 Raw values vary from plate to plate and are shown uncorrected. Reagents against one gene are numbered here. A plus sign joins genes that one reagent is predicted to hit. The record does not give: the amount of reagent, the time to read-out.

gene,dsRNA no.,"infection score, replicate 1","infection score, replicate 2","cell count, replicate 1","cell count, replicate 2",Outcome
CG8372,1,2.06,9.87,5969,5592,inactive
SP2353,1,10.4,5,6081,6860,inactive
SP2353,2,0.98,0.88,6225,6568,inactive
Atg16,1,9.7,4.85,5843,6778,inactive
Atg16,2,1.44,1.28,6121,6789,inactive
Atg16,3,0.45,1.57,6285,6799,inactive
2mit,1,1.47,9.44,6989,6642,inactive
2mit,2,3.74,14.6,6741,6839,inactive
CG13946,1,2.69,13.1,6582,6547,inactive
Dop2R,1,1.41,0.81,5597,5949,inactive
Dop2R,2,28.3,13.7,5084,5701,inactive
REPTOR,1,2.03,3.27,6537,5657,inactive
REPTOR,2,6,10.8,4465,4299,inactive
CycA,1,1.57,1.22,1274,1226,inactive
CycA,2,23.2,9.96,2712,1135,inactive
CG14606,1,2.86,6.14,6301,6530,inactive
Cep97,1,3.5,4.05,6310,6372,inactive
CG18858 + CG31683,1,10.7,4.61,7324,6686,inactive
Obp99a,1,5.48,,1769,387,inactive
Drep3,1,2.11,1.78,6589,5949,inactive
Drep3,2,4.49,3.85,6497,6944,inactive
CG5611,1,1.58,7.99,6947,5196,inactive
SLIRP2,1,10.8,13.8,2794,5514,inactive
SLIRP2,2,3.27,5.56,6294,6079,inactive
CG4198,1,5.11,2.93,6050,6316,inactive
CG4198,2,1.27,2.47,6222,6385,inactive
stau,1,7.32,12.4,6629,6475,inactive
Syn1,1,5.07,11.8,6171,5496,inactive
Syn1,2,0.91,6.41,6504,6331,inactive
Syn1,3,15.3,15.5,6117,6515,inactive
wmd,1,2.62,5.86,7357,6126,inactive
wmd,2,12.1,12.1,4316,730,inactive
CG3348,1,7.23,0.9,1134,6668,inactive
Nplp3,1,1.95,1.19,6197,6407,inactive
RpS23,1,27.6,30.9,4374,5204,inactive
RpS23,2,8.84,11.8,4523,4999,inactive
RYa-R,1,4.13,2.71,6366,7008,inactive
Sirt7,1,1.72,1.8,5770,6437,inactive
Sirt7,2,4.02,1.51,6390,5618,inactive
O-fut1,1,5.21,6.8,5952,6586,inactive
O-fut1,2,4.89,1.33,5812,5705,inactive
Vps15,1,4.08,4.86,6447,6978,inactive
egl,1,2.62,9.75,6108,6187,inactive
temp,1,16.2,2.21,5822,6202,inactive
NK7.1,1,2.55,1.16,5692,5965,inactive
Boh2,1,,21.4,620,2978,inactive
Ssadh,1,5.85,4.67,6305,6495,inactive
Ssadh,2,9.6,37,6740,4481,inactive
CG31674,1,0.93,9.31,6644,5587,inactive
CG31674,2,3.31,7.67,6712,6258,inactive
CG33170,1,3.02,1.5,6457,6940,inactive
CG4313,1,8.68,2.1,5897,6385,inactive
CG4313,2,2.69,5.2,6976,5866,inactive
chk,1,7.18,10.5,6618,6702,inactive
CG13137,1,5.27,4.41,6780,6736,inactive
dmrt93B,1,12,1.72,6089,6624,inactive
dmrt93B,2,4.9,2.69,6387,6252,inactive
CG17283,1,2.07,1.58,581,570,inactive
